Experimental data published in patent US20240109955A1 (published 2024).

What was measured:
Test in all cases: cell-based or functional assay
[1] = molecular target: SARS-CoV-2 Omicron BQ.1.1 spike protein (SARS-CoV-2)
[2] = molecular target: SARS-CoV-2 Omicron BQ.1 spike protein (SARS-CoV-2)
[3] = molecular target: SARS-CoV-2 Omicron BA.4/5 spike protein (SARS-CoV-2)
[4] = molecular target: SARS-CoV-2 Omicron BA.2.75.2 spike protein (SARS-CoV-2)
[5] = molecular target: SARS-CoV-2 Omicron XBB spike protein (SARS-CoV-2)

Row | Binder | IC50, pseudovirus neutralization [1] | IC80, pseudovirus neutralization [1] | IC50, pseudovirus neutralization [2] | IC80, pseudovirus neutralization [2] | IC50, pseudovirus neutralization [3] | IC80, pseudovirus neutralization [3] | IC50, pseudovirus neutralization [4] | IC80, pseudovirus neutralization [4] | IC50, pseudovirus neutralization [5] | IC80, pseudovirus neutralization [5]
1 | MX1047 (bispecific antibody) chain 1: DTVMTQSPLSLPVTPGEPASISCRSSQSLLNSNGYNYLDWYVQKPGQSPQLLIYLGSNRASGVPDRFSGSGSGTDFTLKISRVEAEDVGVYYCMQPLQTPLFTFGPGTKVEIKGGSSGEIVLTQSPGTLSLSPGERATLSCRASQSVSSSYLAWYQQKPGQAPRLLIYSASSRATGIPDRFSGSGSGTDFTLTISRLEPEDFAVYFCQQYVGLTGWTFGQGTKVEIKGGGGSGGSGSGGGGSASGSGQMQLVQSGPEVKKPGTSVKVSCKASGFTFTSSAVQWVRQRQRLEWIGWIVVGSGNTNYAQKFQERVTITRDMSTSTAYMELSSLRSEDTAVYYCAAPNCSNVVCYDGFDIWGQGTMVTVSSGGSSGQVTLRESGPALVKPTQTLTLTCTFSGFSLSTRGVCVSWIRQPPGKALEWLAFIDWDDDKYYNTSLKTRLTISKDTSKNQVVLTMTNVHPVDTATYYCARISSHHGSSWCTTFDYWGQGALVTVSAASGGSGDKTHTCPPCPAPELLGGPSVFLFPPKPKDTLMISRTPEVTCVVVDVSHEDPEVKFNWYVDGVEVHNAKTKPREEQYNSYVVSVLTVLHQDWLNGKEYKCKVSNKALPAPIEKTISKAKGQPREPQVYTLPPSRDELTKNQVSLTCLVKGFYPSDIAVEWESNGQPENNYKTTPPVLDSDGSFFKKLTVDKSRWQQGNVFSCSVLHEALHSHYTQKSLSLSPG chain 2: EIVLTQSPGTLSLSPGERATLSCRASQSVSSSYLAWYQQKPGQAPRLLIYSASSRATGIPDRFSGSGSGTDFTLTISRLEPEDFAVYFCQQYVGLTGWTFGQGTKVEIKGGSSGQTVVTQEPSFSVSPGGTVTLTCGLSSGSVSTAYFPSWYQQTPGQAPRTLIYGTNTRSSGVPDRFSGSILGNKAALTITGAQADDESDYYCVLYMGRGIVVFGGGTKLTVLGGGGSGGSGSGGGGSASGSGQVQLVESGGGVVQPGRSLRLSCAASGFTLSSYGMHWVRQAPGKGLEWVAVISYDGSNKYYVDSVKGRFTISRDNSKNTLYLQMNSLRAEDTAVYYCRWAYWELLPDYYYGMDVWGQGTTVTVSSGGSSGQMQLVQSGPEVKKPGTSVKVSCKASGFTFTSSAVQWVRQRQRLEWIGWIVVGSGNTNYAQKFQERVTITRDMSTSTAYMELSSLRSEDTAVYYCAAPNCSNVVCYDGFDIWGQGTMVTVSSASGGSGDKTHTCPPCPAPELLGGPSVFLFPPKPKDTLMISRTPEVTCVVVDVSHEDPEVKFNWYVDGVEVHNAKTKPREEQYNSYVVSVLTVLHQDWLNGKEYKCKVSNKALPAPIEKTISKAKGQPREPQVYTLPPSRDELTKNQVSLTCLVKGFYPSDIAVEWESNGQPENNYKTTPPVLDSDGSFFKKLTVDKSRWQQGNVFSCSVLHEALHSHYTQKSLSLSPG | 0.0967 µg/mL | 0.7 µg/mL | 0.0197 µg/mL | 0.19 µg/mL | 0.00346 µg/mL | 0.00846 µg/mL | 0.00436 µg/mL | 0.0258 µg/mL | 0.208 µg/mL | 3.29 µg/mL
2 | MX1049 (bispecific antibody) EIVLTQSPGTLSLSPGERATLSCRASQSVSSSYLAWYQQKPGQAPRLLIYSASSRATGIPDRFSGSGSGTDFTLTISRLEPEDFAVYFCQQYVGLTGWTFGQGTKVEIKGGSSGDTVMTQSPLSLPVTPGEPASISCRSSQSLLNSNGYNYLDWYVQKPGQSPQLLIYLGSNRASGVPDRFSGSGSGTDFTLKISRVEAEDVGVYYCMQPLQTPLFTFGPGTKVEIKGGGGSGGSGSGGGGSASGSGQVTLRESGPALVKPTQTLTLTCTFSGFSLSTRGVCVSWIRQPPGKALEWLAFIDWDDDKYYNTSLKTRLTISKDTSKNQVVLTMTNVHPVDTATYYCARISSHHGSSWCTTFDYWGQGALVTVSAGGSSGQMQLVQSGPEVKKPGTSVKVSCKASGFTFTSSAVQWVRQRQRLEWIGWIVVGSGNTNYAQKFQERVTITRDMSTSTAYMELSSLRSEDTAVYYCAAPNCSNVVCYDGFDIWGQGTMVTVSSASGGSGDKTHTCPPCPAPELLGGPSVFLFPPKPKDTLMISRTPEVTCVVVDVSHEDPEVKFNWYVDGVEVHNAKTKPREEQYNSYVVSVLTVLHQDWLNGKEYKCKVSNKALPAPIEKTISKAKGQPREPQVYTLPPSRDELTKNQVSLTCLVKGFYPSDIAVEWESNGQPENNYKTTPPVLDSDGSFFKKLTVDKSRWQQGNVFSCSVLHEALHSHYTQKSLSLSPG | 0.0645 µg/mL | 2.18 µg/mL | 0.0226 µg/mL | 0.103 µg/mL | 0.00347 µg/mL | 0.0106 µg/mL | 0.00636 µg/mL | 0.0171 µg/mL | 0.156 µg/mL | 4.53 µg/mL
3 | A23-58L93VGLTG (antibody, V domains shown) VH: QMQLVQSGPEVKKPGTSVKVSCKASGFTFTSSAVQWVRQRQRLEWIGWIVVGSGNTNYAQKFQERVTITRDMSTSTAYMELSSLRSEDTAVYYCAAPNCSNVVCYDGFDIWGQGTMVTVSS VL: EIVLTQSPGTLSLSPGERATLSCRASQSVSSSYLAWYQQKPGQAPRLLIYSASSRATGIPDRFSGSGSGTDFTLTISRLEPEDFAVYFCQQYVGLTGWTFGQGTKVEIK | 0.0303 µg/mL | 1.32 µg/mL | 0.0235 µg/mL | 0.0877 µg/mL | 0.0052 µg/mL | 0.0135 µg/mL | > 10 µg/mL | > 10 µg/mL | > 10 µg/mL | > 10 µg/mL
